PubChem BioAssay AID504761 | Drosophila RNAi Screening Center, 2011
The deposit covers about 22,000 reagents; below is a random part of those with a known target gene and a result. Over the whole deposit, 116 (0.52%) are marked active. 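Calls depend on retest data that are not deposited; infection was ranked per plate without normalising between plates; the unit of the infection score is not given.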 Raw values vary from plate to plate and are shown uncorrected. A plus sign joins genes that one reagent is predicted to hit. Reagent sequences are not shown. The record does not give: the amount of reagent, the time to read-out.

Test: 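Insect host genes that dengue virus relies on to spread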 (primary screen)
System: D.Mel-2 cells from Drosophila
Reagents: long dsRNA against Drosophila genes
Challenge: infection with dengue virus type 2; dose and infection time not stated
Detection: 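Per well on two replicate plates, imaging gave the percent of cells positive for viral envelope protein, ranked by infection, and a nuclear count of cells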
Reading the numbers: infection score: higher = more virus-infected cells; cell count: higher = more cells in the well
Hit rule: 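Low infection ranks in the two replicates (chance level up to 0.065) followed by a retest with a 1.5-fold or larger significant decrease, p below 0.05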
Calls: active = confirmed: knock-down lowers infection; inactive = not picked or not confirmed

gene | amplicon | infection score, replicate 1 | infection score, replicate 2 | cell count, replicate 1 | cell count, replicate 2 | call
Jon99Fii | DRSC15430 | 7.09 | 0.64 | 4897 | 469 | inactive
ppk21 | DRSC14466 | 0.27 | 10.2 | 370 | 3022 | inactive
CG12551 (retired record) | DRSC04857 | 3.07 | 5.99 | 6460 | 6928 | inactive
CG12551 (retired record) | DRSC04864 | 1.95 | 9.96 | 6720 | 6777 | inactive
CG12551 (retired record) | DRSC25725 | 7.68 | 15.6 | 6116 | 6389 | inactive
CG12551 (retired record) | DRSC27579 | 3.56 | 11.2 | 6299 | 6554 | inactive
EndoA | DRSC14775 | 1.34 | 1.85 | 6341 | 6318 | inactive
EndoA | DRSC29646 | 21.7 | 12.8 | 5031 | 2612 | inactive
edl | DRSC06516 | 8.32 | 4.92 | 6167 | 6912 | inactive
edl | DRSC28035 | 3.12 | 10.3 | 5638 | 5593 | inactive
Rh50 | DRSC08692 | 8.21 | 4.78 | 6150 | 5734 | inactive
Ste:CG33238 + Ste:CG33241 + Ste:CG33244 + 10 more | DRSC26515 | 3.91 | 2.15 | 6285 | 6943 | inactive
CG18731 | DRSC15377 | – | – | 309 | 314 | inactive
CG6421 | DRSC07420 | 16.6 | 13.9 | 6477 | 7383 | inactive
CG6421 | DRSC29544 | 25.4 | 17 | 3950 | 6084 | inactive
Dh31 | DRSC02196 | 5.68 | 6.6 | 6641 | 6231 | inactive
Kdm3 | DRSC16393 | 1.51 | 3.6 | 6734 | 6759 | inactive
Kdm3 | DRSC28659 | 9.37 | 19.6 | 4939 | 4051 | inactive
CG8562 | DRSC10995 | 4.72 | 4.18 | 5905 | 6030 | inactive
CG8562 | DRSC28778 | 3.05 | 6.73 | 557 | 1397 | inactive
Xport-A + Xport-B | DRSC15586 | 2.39 | 2.93 | 6478 | 6073 | inactive
side-IV + CG17025 (retired record) | DRSC15168 | 3.15 | 7.65 | 5931 | 4799 | inactive
aPKC | DRSC05515 | 1.79 | 4.1 | 6096 | 5311 | inactive
aPKC | DRSC07639 | 18 | 22.2 | 5967 | 5572 | inactive
aPKC | DRSC28133 | 12.9 | 5.63 | 5537 | 6105 | inactive
aPKC | DRSC29936 | 6.48 | 12.2 | 6122 | 6090 | inactive
RunxA | DRSC20498 | 2.99 | – | 4014 | – | inactive
RunxA | DRSC20524 | 11.4 | 27.5 | 507 | 4439 | inactive
RunxA | DRSC21915 | 6.8 | 15 | 5868 | 5504 | inactive
RunxA | DRSC25225 | 1.65 | 0.99 | 5985 | 6290 | inactive
RunxA | DRSC27250 | 15.6 | 11.8 | 6689 | 6317 | inactive
Fip1 | DRSC12147 | 3.05 | 5.08 | 4462 | 4367 | inactive
CG31262 | DRSC13216 | 4.27 | 2.87 | 5906 | 5689 | inactive
CG33253 | DRSC19547 | 10.7 | 3.58 | 5860 | 5787 | inactive
CG33253 | DRSC20053 | 2.93 | 11 | 5802 | 6361 | inactive

Copied from the list.
aPKC [DRSC07639], cell count, replicate 2: 5572
Under “call”, CG8562 [DRSC28778] is entered as inactive
Value of RunxA [DRSC20524] in “cell count, replicate 2”: 4439
Value of Dh31 [DRSC02196] in “infection score, replicate 1”: 5.68
Entry for aPKC [DRSC05515] in “infection score, replicate 1”: 1.79
Result of side-IV + CG17025 (retired record) [DRSC15168] in “cell count, replicate 1”: 5931

More entries:
gene | amplicon | infection score, replicate 1 | infection score, replicate 2 | cell count, replicate 1 | cell count, replicate 2 | call
Fbxo42 | DRSC04529 | 3.4 | 17 | 6139 | 5985 | inactive
Fbxo42 | DRSC29911 | 11.9 | 9.32 | 6278 | 6180 | inactive
CG11854 | DRSC14409 | 6.08 | 8.46 | 6485 | 2174 | inactive
TwdlL | DRSC16042 | 6.75 | 3.34 | 6296 | 6642 | inactive
Npc1a | DRSC03378 | 3.5 | 3.3 | 6912 | 6945 | inactive
Dys | DRSC13364 | 7.1 | 3.63 | 5930 | 6013 | inactive
Dys | DRSC15260 | 0.97 | 3.86 | 6275 | 6967 | inactive
Dys | DRSC16218 | 4.45 | 2.52 | 6771 | 6639 | inactive
Dys | DRSC16219 | 11 | 1.4 | 6534 | 7192 | inactive
Dys | DRSC16220 | 6.68 | 2.59 | 6493 | 1041 | inactive
Dys | DRSC16935 | 0.58 | 6.8 | 6699 | 5452 | inactive
Dys | DRSC25148 | 7.75 | 4.2 | 6660 | 6480 | inactive
PhKgamma | DRSC20268 | 3.51 | 4.04 | 6727 | 6536 | inactive
PhKgamma | DRSC27226 | 10.1 | 5.74 | 6305 | 6152 | inactive
Aldh-III | DRSC06047 | 2.6 | 3.97 | 6780 | 6315 | inactive
Aldh-III | DRSC26578 | 7.4 | 12.8 | 6054 | 5133 | inactive
CG4558 | DRSC18369 | 2.49 | 6.29 | 6190 | 6504 | inactive
Sps2 | DRSC03441 | 27.3 | 5 | 5806 | 5616 | inactive
Mi-2 | DRSC11222 | 6.28 | 9.81 | 3422 | 3863 | inactive
Mi-2 | DRSC25055 | 8.86 | 4.17 | 4641 | 4508 | inactive
Rep | DRSC07526 | 12.6 | 0.24 | 3918 | 411 | inactive
CG31253 + CG31131 | DRSC13839 | 9 | 6.9 | 4831 | 6046 | inactive
CG6479 | DRSC10647 | 4.43 | 4.55 | 6615 | 6526 | inactive
yellow-e3 | DRSC15170 | 1.02 | 8.35 | 6684 | 6971 | inactive
CG31769 | DRSC01361 | 3.04 | 5.34 | 5981 | 5617 | inactive
CG7914 | DRSC20068 | 5.02 | 2.34 | 6036 | 6103 | inactive
CG7914 | DRSC28931 | 2.65 | – | 981 | 371 | inactive
Shc | DRSC11284 | 1.8 | 1.93 | 6124 | 6125 | inactive
CG4891 | DRSC01936 | 17.5 | 7.05 | 6119 | 6507 | inactive
CG4891 | DRSC24341 | 1.83 | 2.33 | 6020 | 6179 | inactive
5-HT2A | DRSC11990 | 8.83 | 8.76 | 6693 | 6620 | inactive
Cyp304a1 | DRSC16623 | 3.23 | 10.8 | 6288 | 6320 | inactive
Traf-like | DRSC19894 | 3.65 | 2.93 | 6597 | 6476 | inactive
f-cup | DRSC14139 | 7.91 | 8.88 | 6399 | 6224 | inactive
f-cup | DRSC28933 | 1.29 | – | 700 | 410 | inactive
CG33500 | DRSC09115 | 0.56 | 2.85 | 5669 | 6031 | inactive
CG9518 | DRSC20194 | 1.81 | 1.94 | 6474 | 6582 | inactive
CG9518 | DRSC27096 | 5.16 | 7.7 | 6575 | 6413 | inactive
CG6154 | DRSC15977 | 1.09 | 4.04 | 6516 | 6216 | inactive
CG6154 | DRSC28363 | 10.5 | 2.96 | 6123 | 742 | inactive
